This assay is described as follows: Relative hydrolytic reactivity of methyl paraoxon versus triphenyl phosphate (separate experiment). As to conditions: hydrolysis with aminoguanidine imines.

Regarding `COP(=O)(OC)Oc1ccc([N+](=O)[O-])cc1`, the “reaction rate relative to triphenyl phosphate (4)” value stood at 1.2 times.

The values are drawn from US20240042259A1.
